Results of unrelated studies side by side (data: NIAID ChemDB).

Common to all: enzyme or target tests; organism: HIV-1; protein: Integrase; read by: strand transfer; read-out: IC50

ICn: concentration for n% inhibition.

{"structure": "CCOC(=O)C1=C(O)CCC2(C(=O)OC(C)(C)OC2=O)[C@H]1c1ccco1", "value": "43.8 µM"}
{"structure": "Cc1cn(C2CC(OP(=O)(O)OCC3OC(n4cnc5c(N)ncnc54)CC3O)C(COP(=O)(O)OC3CC(n4ccc(N)nc4=O)OC3COP(=O)(O)O)O2)c(=O)[nH]c1=O", "value": "6 µM"}
{"structure": "Nc1ccn([C@@H]2O[C@H](COP(=O)(O)O[C@H]3[C@H](n4cnc5c(N)ncnc54)CO[C@@H]3COP(=O)(O)O)[C@@H](O)[C@H]2O)c(=O)n1", "value": ">1000 µM"}
{"structure": "O=C=Nc1cc(S(=O)(=O)c2ccc(Cl)c(N=C=O)c2)ccc1Cl", "value": "90 µM"}
{"structure": "CC(=O)Oc1ccc(/C=C/C(=O)O[C@@H](C(=O)O)[C@@H](OC(=O)/C=C/c2ccc(OC(C)=O)c(OC(C)=O)c2)C(=O)O)cc1OC(C)=O", "strain or isolate": "IIIB", "value": ">78 µM"}
{"structure": "NC(N)=NC(N)=Nc1ccc(S(=O)(=O)c2ccc(N=C(N)N=C(N)N)cc2)cc1", "value": ">100 µM"}
{"structure": "O=C(N[C@H](Cc1ccc(O)c(O)c1)C(=O)OCc1ccccc1)c1ccc([N+](=O)[O-])cc1", "value": "31.3–45.8 µM"}
{"structure": "Cc1cn([C@H]2C[C@@H]3OP(=O)(O)OC[C@H]4O[C@@H](n5cnc6c(=O)[nH]c(N)nc65)C[C@@H]4OP(=O)(O)OC[C@H]3O2)c(=O)[nH]c1=O", "value": ">1000 µM"}
{"structure": "CN1CC(O)C(C)(C)Cn2c(c3c(c(O)c2=O)C(=O)N(Cc2ccc(F)c(Cl)c2)CC3)C1=O", "value": "0.021 µM"}
{"structure": "Cc1cn([C@H]2C[C@H](O)[C@@H](COP(=O)(O)O[C@H]3[C@H](n4cnc5c(N)ncnc54)CO[C@@H]3COP(=O)(O)O)O2)c(=O)nc1N", "value": "50 µM"}
{"structure": "O=c1ccc(-c2ccc(C(F)(F)F)cc2)c(O)c(O)c1O", "value": "120 µM"}
{"structure": "O=C1c2c(O)c(=O)n(C34CC5CC(CC(O)(C5)C3)C4)c(=O)n2CCN1Cc1ccc(F)cc1", "value": "<10 µM"}
{"structure": "Nc1ccn(C2CC(OP(=O)(O)OCC3OC(n4cnc5c(N)ncnc54)CC3OP(=O)(O)OCC3OC(n4cnc5c(N)ncnc54)CC3O)C(COP(=O)(O)O)O2)c(=O)n1", "value": "22 µM"}
{"structure": "O=C1c2c(ccc(O)c2O)CN1Cc1cc(F)cc(F)c1", "value": "0.33 µM"}
{"structure": "CC(C)(C)OC(=O)C(C)(C)n1c(=O)c(O)c2n(c1=O)CCN(Cc1ccc(F)cc1)C2=O", "value": "<10 µM"}
{"structure": "O=C1c2c(ccc(O)c2O)CN1Cc1ccc2[nH]ccc2c1", "value": "28.7 µM"}
{"structure": "O=c1ccc(-c2cccc(C(F)(F)F)c2)c(O)c(O)c1O", "value": "7.1 µM"}
{"structure": "CN1C/C(=C\\c2cc(O)c(O)c(O)c2)C(=O)/C(=C/c2cc(O)c(O)c(O)c2)C1", "value": "0.6 µM"}
{"structure": "Nc1ncnc2c1ncn2[C@@H]1CO[C@H](COP(=O)(O)O)[C@H]1OP(=O)(O)OC[C@H]1O[C@@H](n2cnc3c(N)ncnc32)C[C@@H]1O", "value": ">1000 µM"}
{"structure": "O=C1OC2C(O)COC2(O)C1(O)Cc1cc(O)c(O)c(Br)c1Br", "value": "6.1–9.8 µM"}
{"structure": "O=C(NCc1ccc(F)cc1)C1C(=O)N(O)C(=O)c2cc(Br)ccc21", "value": "0.21 µM"}
{"structure": "CN1CCN(C2(Cn3c(=O)c(O)c4n(c3=O)CCN(Cc3ccc(F)cc3)C4=O)CCCCC2)CC1", "value": "<10 µM"}
{"structure": "O=C(Nc1ccc2c(c1)C(=O)N(O)C(=O)C2C(=O)NCc1ccc(F)cc1)c1ccccc1", "value": "0.21 µM"}
{"structure": "CS(=O)(=O)CS(=O)(=O)Nc1cc(O)c(O)c2c1C(=O)N(Cc1ccccc1)C2=O", "value": "0.15 µM"}
{"structure": "O=[N+]([O-])c1cccc(S(=O)(=O)c2ccc(F)c([N+](=O)[O-])c2)c1", "value": ">100 µM"}
{"structure": "O=C(O)C(=O)CC(=O)c1cccn1CCCc1ccccc1", "value": "0.5 µM"}
{"structure": "CN1C(=O)C(=O)/C(=C(\\O)c2ccccc2)C1c1cccc(Cl)c1", "value": ">100 µM"}
{"structure": "COc1ccc2c(c1)C(=O)N(O)C(=O)C2C(=O)NCc1ccc(F)cc1", "value": "0.62 µM"}
{"structure": "Cc1cn(C2CC(O)C(COP(=O)(O)OC3CC(n4cnc5c(N)ncnc54)OC3COP(=O)(O)OC3CC(n4ccc(N)nc4=O)OC3COP(=O)(O)O)O2)c(=O)[nH]c1=O", "value": "20 µM"}
{"structure": "N#Cc1ccc(S(=O)(=O)c2ccc(C#N)cc2)cc1", "value": ">100 µM"}
{"structure": "CC(=O)Nc1ccc2c(c1)C(=O)N(O)C(=O)C2C(=O)NCc1ccc(F)cc1", "value": "0.06 µM"}
{"structure": "O=C1c2c(O)c(=O)n(C3CCC3)c(=O)n2CCN1Cc1ccc(F)cc1", "value": "<10 µM"}
{"structure": "O=[N+]([O-])c1cccc(S(=O)(=O)c2cccc([N+](=O)[O-])c2)c1", "value": ">100 µM"}
{"structure": "O=C(Cc1ccccc1)Nc1ccc2c(c1)C(=O)N(O)C(=O)C2C(=O)NCc1ccc(F)cc1", "value": "0.27 µM"}
{"structure": "O=C(O)C(=O)CC(=O)c1cccn1Cc1ccccc1", "strain or isolate": "IIIB", "value": "0.2 µM"}
{"structure": "O=C(Nc1ccccc1)c1c(O)n(O)c(=O)c2cc([N+](=O)[O-])ccc12", "value": "0.03 µM"}
{"structure": "O=C1/C(=C/c2ccc(Cl)c(Cl)c2)COC/C1=C\\c1ccc(Cl)c(Cl)c1", "value": "9 µM"}
{"structure": "CC(=O)Nc1cccc(-c2ccc(=O)c(O)c(O)c2O)c1", "value": "5.3 µM"}
{"structure": "O=C(O)c1c[nH]c2c(ccc3[nH]cc(C(=O)O)c(=O)c32)c1=O", "value": "43–51 µM"}
{"structure": "CC(=O)Oc1cc(OC(C)=O)c(OC(C)=O)c(=O)c(OC(C)=O)c1", "value": "62 µM"}
{"structure": "Cc1ccc(CN2Cc3ccc(O)c(O)c3C2=O)cc1F", "value": "1.48 µM"}
{"structure": "O=C(O)C(=O)CC(=O)c1ccccc1Cc1ccccc1", "strain or isolate": "IIIB", "value": "7 µM"}
{"structure": "C/C=C/C=C/[C@H]1C(C)=C[C@H]2C[C@@H](C)CC[C@@H]2[C@@]1(C)/C(O)=C1/C(=O)[C@H](CO)N(C)C1=O", "value": "15–20 µM"}
{"structure": "O=S(=O)(c1ccc(I)cc1)c1ccc(I)cc1", "value": "90 µM"}
{"structure": "O=C1c2ccc(O)c(O)c2C(=O)N1Cc1cccc(Cl)c1", "value": "0.38 µM"}
{"structure": "O=C(O)c1cc(-c2cn(Cc3ccc(F)cc3)cc2-c2ccccc2)n[nH]1", "value": ">333 µM"}
{"structure": "O=C(/C=C(\\O)c1nn[nH]n1)c1ccc(Cc2ccc(F)cc2)o1", "value": "0.42 µg/mL"}
{"structure": "O=C1OC(=O)c2cc(S(=O)(=O)c3ccc4c(c3)C(=O)OC4=O)ccc21", "value": "18.6 µM"}
{"structure": "O=C(c1ccccc1)c1cccc(CN2C(=O)c3ccc(O)c(O)c3C2=O)c1", "value": "1.1 µM"}
{"structure": "Cc1cn(C2CC(OP(=O)(O)OCC3OC(n4ccc(N)nc4=O)CC3O)C(COP(=O)(O)OC3CC(n4cnc5c(=O)[nH]c(N)nc54)OC3COP(=O)(O)O)O2)c(=O)[nH]c1=O", "value": "9 µM"}
{"structure": "O=C(Nc1ccc2c(c1)C(=O)N(O)C(=O)C2C(=O)NCc1ccc(F)cc1)c1ccccn1", "value": "0.77 µM"}
{"structure": "O=C(O)COc1ccc(S(=O)(=O)c2ccc(OCC(=O)O)c([N+](=O)[O-])c2)cc1[N+](=O)[O-]", "value": "64.2 µM"}
{"structure": "O=C1/C(=C/c2ccc([N+](=O)[O-])c(O)c2)CNC/C1=C\\c1ccc([N+](=O)[O-])c(O)c1", "value": ">100 µM"}
{"structure": "O=C(O)C(=O)CC(=O)c1cccc(Cc2cccc(F)c2)c1", "strain or isolate": "IIIB", "value": "0.15 µM"}
{"structure": "O=C1/C(=C/c2cc(O)c(O)c(O)c2)CN(Cc2ccccc2)C/C1=C\\c1cc(O)c(O)c(O)c1", "value": "1.1 µM"}
{"structure": "Cc1cn(C2CC(OP(=O)(O)OCC3OC(n4cnc5c(=O)[nH]c(N)nc54)CC3O)C(COP(=O)(O)O)O2)c(=O)[nH]c1=O", "value": "31 µM"}
{"structure": "Nc1ncnc2c1ncn2[C@@H]1CO[C@H](COP(=O)(O)O)[C@H]1OP(=O)(O)OC[C@H]1O[C@@H](n2ccc(=O)[nH]c2=O)[C@H](O)[C@@H]1O", "value": ">1000 µM"}
{"structure": "COc1cc(C)c2c(c1C)OC(=O)c1c(C)c(Cl)c(O)c(C=O)c1O2", "value": "1.9–2.6 µM"}

Repeating the first 4 entries:

{"structure": "CCOC(=O)C1=C(O)CCC2(C(=O)OC(C)(C)OC2=O)[C@H]1c1ccco1", "value": "43.8 µM"}
{"structure": "Cc1cn(C2CC(OP(=O)(O)OCC3OC(n4cnc5c(N)ncnc54)CC3O)C(COP(=O)(O)OC3CC(n4ccc(N)nc4=O)OC3COP(=O)(O)O)O2)c(=O)[nH]c1=O", "value": "6 µM"}
{"structure": "Nc1ccn([C@@H]2O[C@H](COP(=O)(O)O[C@H]3[C@H](n4cnc5c(N)ncnc54)CO[C@@H]3COP(=O)(O)O)[C@@H](O)[C@H]2O)c(=O)n1", "value": ">1000 µM"}
{"structure": "O=C=Nc1cc(S(=O)(=O)c2ccc(Cl)c(N=C=O)c2)ccc1Cl", "value": "90 µM"}

Rows are shuffled and stem from different studies. Two numbers with a dash give a range or band.